This assay addresses HipTLp, purified recombinant, His6-SBP tag cleaved (Legionella pneumophila, UniProt Q5ZSZ6 1-312). In words: native gel or EMSA. To be noted: both partners purified.

B1: HipBLp, purified recombinant, His6-SBP tag cleaved (natural protein)
chain: MPKHEIANLIHYYRKQSGLSQQELARLAGVGKTVIYDIEKGKESVRLNTLLKVLDVLNIQIKFETPFPQTTDNNS
On to B1, for which the binding result is “binds”.

B2: HipSLp, purified recombinant, His6-SBP tag cleaved (natural protein)
chain: MRKAYVSVSGIKAGILEELQGGTYQFTYFEDYHGAPVSLTMPLKNKVYDFDVFPPFFEGLLPEGIMLEALLRKYKIDKNDYFGQLILVGQDVVGAVTIEEIR
In the case of B2, the binding result is “binds”.

The values are drawn from paper PMC10653801, “Functional diversification despite structural congruence in the HipBST toxin-antitoxin system of Legionella pneumophila” (mBio, 2022).
